Inconclusive results and toxic doses are left out.
Test system: CD2F1 mice, L1210 leukemia ip, survival T/C
Assay: NCI In Vivo Anticancer Drug Screen. Data for tumor model L1210 Leukemia (intraperitoneal) in CD2F1 (CDF1) mice
Settings: endpoint: median survival time, vehicle: saline, higher = longer survival
Experimental: The antitumor activity of compounds was measured in mice bearing transplantable tumors. Survival or tumor size were measured and the results are expressed as the measurement made in the treated group (T) divided by the measurement made in the vehicle treated control group (C). The tumor model used in this assay is L1210 Leukemia (intraperitoneal) in CD2F1 (CDF1) mice

**Q.** Which results are given for `O=P1(N(CCCl)CCCl)NC(SCCS(=O)(=O)O)CCO1` (stereo not given)?
**A.** T/C (dose: 12.5 mg/kg/injection, schedule: Q01DX009 (ip)): 150 % of control; T/C (dose: 150.0 mg/kg/injection, schedule: Q01DX001 (ip)): 315 % of control; T/C (dose: 200.0 mg/kg/injection, schedule: Q01DX001 (ip)): 232 % of control; T/C (dose: 200.0 mg/kg/injection, schedule: Q01DX009 (ip)): 107 % of control; T/C (dose: 250.0 mg/kg/injection, schedule: Q01DX001 (ip)): 410 % of control
